A mixed list of measured activities; the numbers were collected in NIAID ChemDB.

All rows: whole-cell or culture tests; species: HIV-1; cell line: MT-2; endpoint: EC50

ECn: concentration that inhibits the pathogen or its effect by n%. An empty or dashed field is not shown. Conditions beyond the fields shown may differ between rows.

smiles	strain	mutations	read by	value
Cc1ncc(-c2cnc(OC(Cc3ccccc3)C(F)(F)F)c(F)c2)c(N2CCC(C)(C)CC2)c1[C@H](OC(C)(C)C)C(=O)O	NL4-3		luminescence	0.0199 µM
C[C@H](Cn1cnc2c(N)ncnc21)OCP(=O)(O)O	Clinical isolate	M41L/D67N/K70R/K103N/L210W/T215F/K219Q	recombinant virus assay	0.136 µM
CC(C)C1=C2[C@H]3CC[C@@H]4[C@@]5(C)CC[C@H](OC(=O)[C@H]6C[C@@H](C(=O)O)C6(C)C)C(C)(C)[C@@H]5CC[C@@]4(C)[C@]3(C)CC[C@@]2([C@@H](O)CNC(=O)c2ccc(O[C@H]3CCOC3)cc2)CC1=O	92HT599		p24 / ELISA	<1 µM
COc1ccc(N(C)C(=O)[C@H](Cc2cc(F)cc(F)c2)NC(=O)Cn2c(=O)n(CC(=O)N[C@@H](Cc3cc(F)cc(F)c3)C(=O)N(C)c3ccc(OC)cc3)c3cc(OC)ccc32)cc1	NL4-3		luciferase	0.04 µM
Cc1cncc(C(=O)N(CCN(C)C)C[C@H](O)[C@@]23CC[C@]4(C)[C@H](CC[C@@H]5[C@@]6(C)CC[C@H](OC(=O)[C@H]7C[C@@H](C(=O)O)C7(C)C)C(C)(C)[C@@H]6CC[C@]54C)C2=C(C(C)C)C(=O)C3)n1	92HT599		p24 / ELISA	<1 µM
C#C[C@@]1(CO)C=C[C@H](n2cc(C)c(=O)[nH]c2=O)O1	Clinical isolate	K65R M184V	recombinant virus assay	0.6137 µM
CC(C)C1=C2[C@H]3CC[C@@H]4[C@@]5(C)CC[C@H](OC(=O)[C@H]6C[C@@H](C(=O)O)C6(C)C)C(C)(C)[C@@H]5CC[C@@]4(C)[C@]3(C)CC[C@@]2([C@@H](O)CNC(=O)c2ccc(OCCN3CCOCC3)cc2)CC1=O	92HT599		p24 / ELISA	<1 µM
COc1ccc(N(C)C(=O)[C@H](Cc2ccccc2)NC(=O)OCCOC(=O)N[C@@H](Cc2ccccc2)C(=O)N(C)c2ccc(OC)cc2)cc1	NL4-3		luciferase	2.6 µM
CC(C)C1=C2[C@H]3CC[C@@H]4[C@@]5(C)CC[C@H](OC(=O)[C@H]6C[C@@H](C(=O)O)C6(C)C)C(C)(C)[C@@H]5CC[C@@]4(C)[C@]3(C)CC[C@@]2(CC(=O)NCc2ccc(F)cc2)CC1=O	92HT599		p24 / ELISA	<1 µM
Cc1ncc(-c2cnc(OCC3CCCC3)c(F)c2)c(N2CCC(C)(C)CC2)c1[C@H](OC(C)(C)C)C(=O)O	NL4-3		luminescence	0.005 µM
Cc1nc2cc(N(C)C(=O)[C@H](Cc3cc(F)cc(F)c3)NC(=O)NS(=O)(=O)N[C@@H](Cc3cc(F)cc(F)c3)C(=O)N(C)c3ccc4sc(C)nc4c3F)ccc2s1	NL4-3		luciferase	0.86 µM
Cc1ncc(-c2cnc(OCCC3CCCCC3)c(F)c2)c(N2CCC(C)(C)CC2)c1[C@H](OC(C)(C)C)C(=O)O	NL4-3		luminescence	0.0033 µM
CC(C)C1=C2[C@H]3CC[C@@H]4[C@@]5(C)CC[C@H](OC(=O)[C@H]6C[C@@H](C(=O)O)C6(C)C)C(C)(C)[C@@H]5CC[C@@]4(C)[C@]3(C)CC[C@@]2([C@@H](O)CNCc2ccc(N3CCCCC3)cc2)CC1=O	92HT599		p24 / ELISA	<1 µM
Cc1ncc(-c2ccc(OCCOc3cccc(C(=O)O)c3)cn2)c(N2CCC(C)(C)CC2)c1[C@H](OC(C)(C)C)C(=O)O	NL4-3		luminescence	0.1202 µM
CC(C)C1=C2[C@H]3CC[C@@H]4[C@@]5(C)CC[C@H](OC(=O)[C@H]6C[C@@H](C(=O)O)C6(C)C)C(C)(C)[C@@H]5CC[C@@]4(C)[C@]3(C)CC[C@@]2(CC(=O)NCC2(N)CCC2)CC1=O	92HT599		p24 / ELISA	<1 µM
Cc1ncc(-c2ccc(OC3CCCC3)cn2)c(N2CCC(C)(C)CC2)c1[C@H](OC(C)(C)C)C(=O)O	NL4-3		luminescence	0.0063 µM
C=CCN(C(=O)[C@H](Cc1cc(F)cc(F)c1)NC(=O)NS(=O)(=O)N[C@@H](Cc1cc(F)cc(F)c1)C(=O)N(CC=C)c1ccc2nccnc2c1)c1ccc2nccnc2c1	NL4-3		luciferase	8.21 µM
COc1ccc(OCCOc2ccc(-c3cnc(C)c([C@H](OC(C)(C)C)C(=O)O)c3N3CCC(C)(C)CC3)nc2)cc1	NL4-3		luminescence	0.0007 µM
COc1ccc(N(C)C(=O)[C@H](Cc2cc(F)cc(F)c2)NS(=O)(=O)CS(=O)(=O)N[C@@H](Cc2cc(F)cc(F)c2)C(=O)N(C)c2ccc(OC)cc2)cc1	NL4-3		luciferase	0.48 µM

The first 2 rows once more:

smiles | strain | mutations | read by | value
Cc1ncc(-c2cnc(OC(Cc3ccccc3)C(F)(F)F)c(F)c2)c(N2CCC(C)(C)CC2)c1[C@H](OC(C)(C)C)C(=O)O | NL4-3 |  | luminescence | 0.0199 µM
C[C@H](Cn1cnc2c(N)ncnc21)OCP(=O)(O)O | Clinical isolate | M41L/D67N/K70R/K103N/L210W/T215F/K219Q | recombinant virus assay | 0.136 µM